## Percent effect of library compounds

Mtb glucose medium: 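Growth of Mycobacterium tuberculosis over 3 days (7H9 medium with glucose and tyloxapol); the read-out is not stated. Tested at 500 µM. Higher reads as more growth inhibition (inferred: compounds with an IC50 in retests scored well above the rest). Size under these conditions: about 18,000 compounds, about 1,400 of them at 50% or above in at least one test.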
Mtb cholesterol medium: 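Phenotypic screen: M. tuberculosis growth, cholesterol and DPPC medium, 4 days; the read-out is not stated. Compounds at 500 µM. Direction is inferred from retests: higher values go with more growth inhibition. Size under these conditions: about 18,000 compounds, about 900 of them at 50% or above in at least one test.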

Results are given as percent effect.
How 0% and 100% were set is not recorded. Most values in the screen are low, and negative values occur.
This is part of a subset picked to be rich in strong results.
A dash means the value is not listed here; it may have been measured.

| Compound | Mtb glucose medium | Mtb cholesterol medium |
|---|---|---|
| `COc1cccc(C(=O)N2CCCNCC2)c1` | 3.875% | - |
| `CNc1nnc(SCC(=O)N2CCCCCC2)s1` | 31.41% | - |
| `O=C1CN(CC(=O)Nc2cccc(Cl)c2Cl)CCN1` | - | -10.39% |
| `Cc1noc(COC2CNC2)n1` | - | -1.561% |
| `CCN(Cc1nc(CSC)no1)[C@H]1COC[C@@H]1O` | 1.046% | - |
| `CC(O)C1CCN(Cc2ccccc2C#N)CC1` (stereo not drawn) | - | 0.3334% |
| `CC(C)NS(=O)(=O)C1CCNC1` (stereo not drawn) | - | -1.355% |
| `CN(CC(C)(CO)CO)c1ncc(Cl)cc1Cl` | 80.49% | 70.57% |
| `CCCC(=O)NC1CCN(CC)CC1` | 7.587% | - |
| `NC(c1ccccc1)C1(CO)CCOCC1` (stereo not drawn) | 23.09% | - |
| `CCOc1ccc(NC(=O)CNC)cc1OCC` | 18.51% | - |
| `CC(CCN)N(C)Cc1ccccc1` (stereo not drawn) | - | -5.432% |
| `c1cnn(CC2CCNCC2)c1` | -4.667% | - |
| `Cn1ncc(N2CCCC2)c(Br)c1=O` | -1.627% | - |
| `CNC(=O)CN1CCC(Oc2ccccc2)C1` (stereo not drawn) | 47.39% | 36.95% |
| `Cc1cc(F)ccc1S(=O)(=O)N1CCC(O)CC1` | - | 4.895% |
| `CCCC(N)C(=O)N(CC)Cc1ccoc1` (stereo not drawn) | 3.653% | - |
| `NCCCc1cccc(O)c1` | 9.178% | 15.81% |
| `O=C1CCC(O)CN1` (stereo not drawn) | -10.7% | - |
| `CCCNC(=O)CN1CCN(c2ccccc2O)CC1` | - | -17.55% |
| `CC(C)Nc1cc(Cl)ccc1OCCS(C)(=O)=O` | 52.48% | 50.42% |
| `CN1C(=O)C(C)(C)c2cc(NC(=O)C3CC3)ccc21` | 39.95% | - |
| `CC1CN(C(=O)NCc2ccc(Cl)s2)CCS(=O)(=O)C1` (stereo not drawn) | - | 5.3% |
| `Cc1ccn(Cc2cccnc2)c(=O)c1` | - | -5.785% |
| `CN1CCC(C(=O)N(C)Cc2ccccn2)CC1=O` (stereo not drawn) | -11% | - |
| `CCO[C@H]1COC[C@@H]1NC(=O)c1occc1C` | 0.2558% | - |
| `Cc1c[nH]c(C(C)NC(=O)c2ccccc2C#N)n1` (stereo not drawn) | 5.812% | - |
| `O=C(c1ccc[nH]1)N1CCCN(Cc2cscn2)CC1` | - | -2.91% |
| `Cc1ccc(OCCN2CCOCC2)cc1` | 17.89% | - |
| `Cn1cc(C(=O)Nc2ccc(-n3cncn3)nc2)cn1` | 6.476% | - |
| `OCCC1CCN(Cc2cccnc2)C1` (stereo not drawn) | - | -12.88% |
| `CC(=O)N1CCCN(C(=O)C2CCN(C)C(=O)C2)CC1` (stereo not drawn) | 5.881% | - |
| `CC(=O)Nc1ccc(CNc2nnc(C(C)C)o2)cc1` | - | 19.82% |
| `CNC(=O)CN(C)C(=O)CCc1ccc(Br)cc1F` | 75.82% | 70.28% |
| `Cn1cc(CNc2ccc(F)cc2)cn1` | 27.84% | - |
| `CC1CCCN(C(=O)c2ccc3nnnn3c2)C1` (stereo not drawn) | 3.153% | - |
| `O=C(CNc1cccc(C(F)(F)F)c1)N1CCNC1=O` | 12.58% | - |
| `CC(C)N(C)C(=O)Nc1ccccc1SCC(N)=O` | -3.201% | - |
| `NC(=O)CC1CCCC1` | -3.85% | 96.4% |
| `CCOC(=O)N1CCC(N2CCCCC(N)C2)CC1` (stereo not drawn) | 14.43% | - |
| `Cc1ccccc1NC(=O)N1CCN(CC(N)=O)CC1` | - | 2.988% |
| `CS(=O)(=O)NCC(=O)NC(C#N)c1ccc(Cl)c(Cl)c1` (stereo not drawn) | - | -7.341% |
| `O=C1CCc2cc(C(=O)N3CCCC3)ccc2N1` | -5.82% | - |
| `CCn1ccnc1CN(C)CC(=O)N(C)C` | 5.04% | - |
| `OC[C@@H]1CNCC[C@@H]1c1ccccc1` | -3.418% | - |
| `OCCOCCSc1n[nH]c(-c2cc(F)cc(F)c2)n1` | 51.14% | - |
| `OCC(CO)(CO)NCc1ccc(Cl)cc1Cl` | 16.51% | - |
| `CC(O)CN(C)c1cc(N2CCCCC2)ncn1` (stereo not drawn) | - | 12.47% |
| `Nc1cc(-c2ccc(I)cc2)nn1CCO` | 52.24% | -5.251% |
| `CNC(=O)NC(=O)CSc1nnc(-c2ccccc2)o1` | -5.164% | -10.16% |
| `Cc1nnc(NC(=O)NC2CCNCC2)s1` | 16.28% | 0.8626% |
| `CN(C)C(CNC(=O)c1cnn(C)c1)c1ccsc1` (stereo not drawn) | - | 12.14% |
| `Cc1c(Br)cnc(N)c1N` | -29.97% | - |
| `c1c[nH]c(C2CCNC2)n1` (stereo not drawn) | -0.3812% | - |
| `COCCN(C)CCCNC(=O)c1cnccn1` | 8.04% | - |
| `CCCn1nnc(NC(=O)COc2ccc(Cl)cc2)n1` | 100% | 110.9% |
| `Nc1ccn(-c2ccc(C(F)(F)F)cn2)n1` | 29.88% | -1.129% |
| `Fc1cc(Cl)cnc1N1CCCNCC1` | 58.84% | - |
| `CCCC(=O)NC1CCNC2(CCC2)C1` (stereo not drawn) | 4.998% | - |
| `CCc1noc(CN2CCCC(CS(N)(=O)=O)C2)n1` (stereo not drawn) | 14.13% | - |
| `CC(=O)c1cccc(OCCN(C)C)c1` | 8.566% | - |
| `O=C1NCC(C(=O)NCCc2ccc(Cl)s2)N1` (stereo not drawn) | 6.619% | - |
| `Cc1nocc1CN` | - | -0.8503% |
| `NC1CC(c2cc(NCC3(CO)CCC3)ncn2)C1` (stereo not drawn) | - | 13.36% |
| `C1CCC(OCC2CCNCC2)C1` | 4.17% | - |
| `O=C(Nc1nccs1)c1csnn1` | 4.084% | - |
| `NS(=O)(=O)c1ccc(CNC(=O)NCC(F)(F)F)cc1` | 8.321% | - |
| `NCC(=O)N1CCCC(CCc2ccc(F)cc2)C1` (stereo not drawn) | 78.91% | 76.62% |
| `CCSCC(C)N(C)C(=O)c1cccc2nn[nH]c12` (stereo not drawn) | 9.617% | -9.044% |
| `CNCc1c[nH]nc1C` | -0.9117% | - |
| `Cc1cc(CNC(=O)N[C@@H](C)C(=O)N(C)C)ccc1Cl` | -1.708% | - |
| `CN(Cc1ccco1)S(=O)(=O)c1cnn(C)c1` | 18.58% | - |
| `OCC(O)CNc1ccnc2ccc(Br)cc12` (stereo not drawn) | - | -40.17% |
| `O=C(c1cnccn1)N1CCN(Cc2ccsc2)CC1` | 15.57% | - |
| `N#Cc1cc(F)cc(CO)c1` | 5.905% | - |
| `CCc1oc(C(=O)NC(COC)C(N)=O)cc1C` (stereo not drawn) | -7.847% | - |
| `c1ccc2c(c1)COC21CCCNC1` (stereo not drawn) | -13.53% | - |
| `CSCC[C@H]1NC(=O)c2ccccc2NC1=O` | - | -16.68% |
| `COc1ccc(C(=O)NCCN(C)C)cc1F` | 8.396% | 6.285% |
| `Cc1cc(C)nc(N2CCN(S(C)(=O)=O)CC2)n1` | - | -19.93% |
| `CC(=O)NC(C)C(=O)N1CCCC2(CC2)C1` (stereo not drawn) | 2.702% | - |
| `CCn1nccc1CN1CCOCC2(CCOCC2)C1` | 15.08% | - |
| `CCN1CCCC1CNC(=O)c1ccc(C)o1` (stereo not drawn) | 25.51% | - |
| `CCc1ccc(CN(C)C(=O)CCNC(C)=O)nc1` | -5.665% | -16.65% |

Some entries from above, unchanged:

| Compound | Mtb glucose medium | Mtb cholesterol medium |
|---|---|---|
| `CCc1oc(C(=O)NC(COC)C(N)=O)cc1C` (stereo not drawn) | -7.847% | - |
| `CCOC(=O)N1CCC(N2CCCCC(N)C2)CC1` (stereo not drawn) | 14.43% | - |
| `Cc1c[nH]c(C(C)NC(=O)c2ccccc2C#N)n1` (stereo not drawn) | 5.812% | - |
| `OC[C@@H]1CNCC[C@@H]1c1ccccc1` | -3.418% | - |
| `CCn1nccc1CN1CCOCC2(CCOCC2)C1` | 15.08% | - |
| `Cc1cc(C)nc(N2CCN(S(C)(=O)=O)CC2)n1` | - | -19.93% |
| `OCCC1CCN(Cc2cccnc2)C1` (stereo not drawn) | - | -12.88% |
| `CNC(=O)CN(C)C(=O)CCc1ccc(Br)cc1F` | 75.82% | 70.28% |
| `CC(O)C1CCN(Cc2ccccc2C#N)CC1` (stereo not drawn) | - | 0.3334% |
| `O=C1NCC(C(=O)NCCc2ccc(Cl)s2)N1` (stereo not drawn) | 6.619% | - |

Data taken from ChEMBL document CHEMBL3988442, “University of Dundee, Small-Polar-MMV Screening Library” (2021).